Anti-infective test results gathered from many reports (values: NIAID ChemDB through PubChem).

Common to all: growth or infection tests; organism: Hepatitis C virus; cell line: Huh7; method: replicon; read-out: EC50

a–b is a range or a potency band.

smiles	value
O=C(O)c1ccc2c(C3CCCCC3)c3n(c2c1)CCOc1ccccc1-3	0.01–1 µM
CNC(=O)c1c(-c2ccc(F)cc2)oc2cc(N3CCOCC3)c(OCCOC)cc12	<1 µM
O=C(Cc1c(Cl)ccc(Cl)c1Cl)N/N=C/c1ccccc1OS(=O)(=O)c1ccc(C(F)(F)F)cc1	>50 µM
CN(C)CCNC(=O)C1=Cc2nccnc2-c2c(C3CCCCC3)c3ccc(C(=O)NC4(C(=O)Nc5ccc(/C=C/C(=O)O)cc5)CCCC4)cc3n2C1	0.01–1 µM
O=C(CC1CCCCC1)N/N=C/c1ccccc1OS(=O)(=O)c1ccc(C(F)(F)F)cc1	5–50 µM
CNC(=O)c1c(-c2ccc(F)cc2)oc2cc(-c3ncn[nH]3)c(OC(C)C)cc12	<30 µM
CN(C(=O)c1ccc2c(C3CCCCC3)c3n(c2c1)CCCc1ccccc1-3)C1(C(=O)O)CCCC1	>10 µM
O=C(Nc1ccc(C2SC(=Nc3ccc(N4CCOCC4)cc3)N(Cc3ccccn3)C2=O)cc1)[C@H]1CCCN1C(=O)Cc1c(Cl)cccc1Cl	<0.1 µM
O=C(O)c1ccc2c(C3CCCCC3)c3n(c2c1)CCN(C(=O)N1CCOCC1)c1ccccc1-3	1–10 µM
O=C(Cc1ccc(F)c(C(F)(F)F)c1)N/N=C/c1ccccc1OS(=O)(=O)c1ccc(C(F)(F)F)cc1	<5 µM
CNC(=O)c1c(-c2ccc(F)cc2)oc2cc(N(CCO)S(C)(=O)=O)c(C3CC3)cc12	<1 µM
Cc1cccnc1C(=O)N/N=C/c1ccccc1OS(=O)(=O)c1ccc(C(F)(F)F)cc1	>50 µM
CCN(c1cc2oc(-c3ccc(F)cc3)c(C(=O)NC)c2cc1F)S(C)(=O)=O	<10 µM
O=C(Cc1cccc(Cl)c1)N/N=C/c1cc(F)ccc1OS(=O)(=O)c1ccc(C(F)(F)F)cc1	<5 µM
CCN(c1cc2oc(-c3ccc(F)cc3)c(C(=O)NC)c2cc1OC(C)C)S(C)(=O)=O	<1 µM
O=C(O)c1ccc2c(C3CCCCC3)c3n(c2c1)C[C@@H](O)Cc1ncccc1-3	1–10 µM
O=C(OCc1ccccc1)[C@@H]1CCCN1C(=O)Nc1ccc(C2SC(=Nc3cccc(F)c3)N(Cc3ccccn3)C2=O)cc1	<0.1 µM
CNC(=O)c1c(-c2ccc(F)cc2)oc2cc(N)c(OC(C)C)cc12	<10 µM
CN1C(=O)Cn2c(c(C3CCCCC3)c3ccc(C(=O)NC4(C(=O)Nc5ccc6c(c5)cc(C(=O)O)n6C)CCCC4)cc32)-c2ccccc21	0.01–1 µM
O=C(Nc1ccc(C2SC(=Nc3cccnc3)N(Cc3cccc(F)c3)C2=O)cc1)[C@H]1C[C@H](O)CN1C(=O)OCc1ccccc1	0.1–1 µM
CNC(=O)c1c(-c2ccc(F)cc2)oc2cc(N(Cc3c(C)noc3C)S(C)(=O)=O)c(OC(C)C)cc12	<10 µM
O=C(Nc1ccc(C2SC(=Nc3ccc(N4CCOCC4)cc3)N(Cc3ccccn3)C2=O)cc1)[C@H]1CCCN1C(=O)Cc1ccccc1	<0.1 µM
CNC(=O)c1c(-c2ccc(F)cc2)oc2cc(N(C)S(C)(=O)=O)c(OCc3nn(C)cc3Cl)cc12	<1 µM
COC(=O)C1=Cc2cc(OCc3ccccc3)ccc2-c2c(C3CCCCC3)c3ccc(C(=O)NS(=O)(=O)N(C)C)cc3n2C1	0.01–1 µM

3 of the rows above, restated:

smiles	value
O=C(Nc1ccc(C2SC(=Nc3cccnc3)N(Cc3cccc(F)c3)C2=O)cc1)[C@H]1C[C@H](O)CN1C(=O)OCc1ccccc1	0.1–1 µM
CNC(=O)c1c(-c2ccc(F)cc2)oc2cc(-c3ncn[nH]3)c(OC(C)C)cc12	<30 µM
CNC(=O)c1c(-c2ccc(F)cc2)oc2cc(N(C)S(C)(=O)=O)c(OCc3nn(C)cc3Cl)cc12	<1 µM

Lines come from different laboratories, so protocols vary. ECn is the concentration giving n% inhibition of infection, replication or growth.